Experimental data from patent publication US10358419B2, “1,3-dipolar [70]fulleropyrrolidinium iodide derivatives” (priority 2015, dated 2019).

Tested on: HIVluc-derived viruses carrying protease mutants resistant to multiple protease inhibitors (11803, 11805, 11806, 11807, 11808, 11809)
Details: 2a 3 μM, Indinavir 0.1 μM during virus production; SupT1, luciferase normalized to ATP

## CC(C)(C)NC(=O)[C@@H]1CN(Cc2cccnc2)CCN1C[C@@H](O)C[C@@H](Cc1ccccc1)C(=O)N[C@H]1c2ccccc2C[C@H]1O [Indinavir]
  Effect on infectivity of multi protease inhibitor resistant viruses (FIG. 12): failed to significantly affect the infection of these viruses
